Anti-infective test results gathered from many reports (values: NIAID ChemDB through PubChem).

Common to all: tests on isolated targets

An empty or dashed field is not shown.

SMILES | changes | read by | tested at | measure | target | result
O=C(O)CS(=O)c1ccc2c3c(cccc13)C(=O)c1ccccc1-2 | - | - | - | IC50 | VP40:TSG101 | 11 µM
COC1C(CO)OC(n2c3ccccc3c3c4c(c5c6ccccc6[nH]c5c32)C(=O)N(C)C4=O)C(O)C1O | - | - | 0.6 µM | inhibition | Topoisomerase I | 95%
Cc1c(-c2ccccc2)c(=O)oc2ccccc12 | - | - | - | IC50 | Tat:TAR/LTR | >100 µM
Cc1ccc(C(=O)Nc2ccc(S(=O)(=O)O)c3cc(S(=O)(=O)O)cc(S(=O)(=O)O)c23)cc1NC(=O)c1cccc(NC(=O)Nc2cccc(C(=O)Nc3cc(C(=O)Nc4ccc(S(=O)(=O)O)c5cc(S(=O)(=O)O)cc(S(=O)(=O)O)c45)ccc3C)c2)c1 | - | - | - | IC50 | cAMP-dependent protein kinase | 656 µM
COc1ccccc1CNCCC[C@H](NC(=O)c1ccc(CNCc2ncc[nH]2)cc1)C(=O)N[C@@H](C)c1cccc2ccccc12 | - | radiometric | - | IC50 | CXCR4 | <0.1 µM
CC(=O)CC1(O)c2c3[nH]c4ccccc4c3cc[n+]2C2C=CC=CC21 | - | ELISA | - | IC50 | p56lck tyrosine kinase | <600 µM
CN(C)CCCN1c2cc(Cl)ccc2Sc2cc(O)c(O)cc21 | - | - | - | IC50 | gp120 | 200 µg/mL
O=c1cc(C(F)(F)F)c2ccc(O)cc2o1 | - | - | - | IC50 | Tat:TAR/LTR | 20 µM
O=C(/C=C/c1cccnc1)/C=C/c1cccnc1 | - | - | - | IC50 | Nuclear factor-kappa B | 2.42 µM
COc1ccccc1/C(=N\O)C(=O)C(Br)(Br)Br | - | - | - | IC50 | Cathepsin D | >1000 µM
c1ccc(CNCc2ccc(CN3CCCCCCCNCCNCC3)cc2)nc1 | - | calcium flux | - | IC50 | CXCR4 | >1 µg/mL
C=C1CN(S(=O)(=O)c2ccc(C)cc2)CCCN(CC(C)C)CCCN(S(=O)(=O)c2ccc(C)cc2)C1 | - | - | - | IC50 | CD4 | 10.3 µM
Clc1cc(CN2CCCNCCNCCCNCC2)cc(Cl)n1 | CXCR4-D171N | - | - | IC50 | CXCR4 | 5.3 µM
CCCCCCC[C@H]1CC2CCC3=C(C(=O)OCCCCN=C(N)N)C(CCCCC)N=C(N1)N32 | - | - | - | IC50 | Protein kinase C | 6.8 µM
O=[N+]([O-])c1ccc(-c2cnn(-c3nccc(C(F)(F)F)n3)c2)c([N+](=O)[O-])c1 | - | - | - | IC50 | InhA | 2.4 µg/mL
C=C1CN(S(=O)(=O)c2ccc(Br)cc2)CCCN(C(=O)OCC)CCCN(S(=O)(=O)c2ccc(Br)cc2)C1 | - | - | - | IC50 | CD4 | 14.4 µM
O=C(/C=C/c1ncccc1-c1ccccc1)/C=C/c1ncccc1-c1ccccc1 | - | - | - | IC50 | Nuclear factor-kappa B | 0.94 µM
COc1ccnc2[nH]cc(C(=O)C(=O)N3CCN(C(=O)c4ccccc4)C[C@H]3C)c12 | - | radiometric | 1 µM | inhibition | gp120 | 20%
Cn1cc(C(=O)O)c(=O)c2cc(N)c(N3CCN(c4ccccn4)CC3)cc21 | - | - | - | IC50 | Tat:TAR/LTR | 720 µM
c1ccc(N2CCCCC2)c(NCc2ccc(CN3CCCNCCNCCCNCC3)cc2)c1 | - | fluorescence | 10 µM | inhibition | CCR5 | 60%
C=C1CN(S(=O)(=O)c2ccc(C)cc2)CCCN(CC(C)CC)CCCN(S(=O)(=O)c2ccc(C)cc2)C1 | - | - | - | IC50 | CD4 | 0.99 µM
Cn1c2ccccc2c(=O)c2c(O)cccc21 | - | nucleotide incorporation | 0.16 µg/mL | inhibition | Protein kinase C | 12.1%
Nc1nccc2c1ncn2[C@H]1CC[C@@H](CO)O1 | - | radiometric | - | Ki | S-adenosylhomocysteine hydrolase | 30.1 µM
CC[C@H](C)[C@H](N)C(=O)N[C@@H](CC(N)=O)C(=O)N[C@@H](CC(N)=O)C(=O)N[C@H](C(=O)N1CCC[C@H]1C(=O)N[C@@H](Cc1c[nH]c2ccccc12)C(=O)N[C@@H](CO)C(=O)O)[C@@H](C)CC | [S375W]GP120 | ELISA | - | IC50 | gp120 | >200 µM
CC(C)C[C@H](NC(=O)C(NC(=O)[C@@H](N)C(C)C)c1cc(O)cc(O)c1)C(=O)N[C@@H](Cc1ccccc1)C(=O)C(=O)N[C@H](C(=O)N[C@H](C(=O)N[C@@H](CC(=O)O)C(=O)O)C(C)C)C(C)C | - | - | - | IC50 | Cathepsin D | 0.88 µM
CCCCCCCC1C[C@@H]2CCc3c(C(=O)OCCCCCCC[C@@H]4C[C@@H]5CC[C@H]6C[C@@H](C)N=C(N4O)N56)c(C)nc([n+]32)N1 | - | - | - | IC50 | CD4 | 7.1 µM
C[C@H](NC(=O)[C@H](CCCNC1CCCCC1)NC(=O)c1ccc(CNCc2ncc[nH]2)cc1)c1cccc2ccccc12 | - | radiometric | - | IC50 | CXCR4 | <0.1 µM
Cc1cccnc1/C=C/C(=O)/C=C/c1ncccc1C | - | - | - | IC50 | Nuclear factor-kappa B | 1.06 µM
CN(C)CCCNC(=O)CCNC(=O)c1cc(NC(=O)c2nc(NC(=O)CCNC(=O)c3cc(NC(=O)c4nc(NC(=O)CCCNC(=O)c5cc(NC(=O)c6nc(NC(=O)CCNC(=O)c7cc(NC(=O)c8nccn8C)cn7C)cn6C)cn5C)cn4C)cn3C)cn2C)cn1C | - | - | - | IC50 | RNA polymerase II | 0.06 µM
Cn1ccc2ccc(C(=O)N3C[C@@H](CN4CCC(c5ccccc5)CC4)[C@H](c4ccsc4)C3)cc21 | - | - | - | IC50 | CCR3 | 0.0008 µM
O=C(O)/C=C/c1ccc(O)c(O)c1 | - | flow cytometry | 100 µg/mL | inhibition | CD4 | 35%
c1cnc2c(NCc3ccc(CN4CCCNCCNCCCNCC4)cc3)cccc2c1 | - | fluorescence | 10 µM | inhibition | CCR5 | 55%
O=c1c(O)cc([C@H]2Oc3cc(O)cc(O)c3C[C@H]2O)cc2c([C@H]3Oc4cc(O)cc(O)c4C[C@H]3O)cc(O)c(O)c12 | - | ELISA | - | IC50 | CXCR4 | >20 µM
C/C(=N\N=C(N)N)c1cc(NC(=O)CCCCCCCCC(=O)Nc2cc(/C(C)=N/N=C(N)N)cc(/C(C)=N/N=C(N)N)c2)cc(/C(C)=N/N=C(N)N)c1 | - | radiometric | - | IC50 | Deoxyhypusine synthase | 1 µM
CC(C)CCC[C@@H](C)[C@H]1CC[C@H]2[C@@H]3CC[C@H]4C[C@@H](CCCC(c5cccc6cc(S(=O)(=O)O)ccc56)c5cccc6cc(S(=O)(=O)O)ccc56)CC[C@]4(C)[C@H]3CC[C@]12C | - | ELISA | - | IC50 | CD4 | 9 µM
OCCOCCN1CCN(Cc2cccc(Oc3ccccc3)c2)CC1 | - | radiometric | - | IC50 | CCR8 | 1.8 µM
O=S(=O)(c1cccc2cnccc12)N1CCNCC1 | - | nucleotide incorporation | 4 µg/mL | inhibition | Protein kinase C | 40.5%
O=C(Oc1cc(O)cc2c1C[C@@H](OC(=O)c1cc(O)c(O)c(O)c1)[C@@H](c1cc(O)c(O)c(O)c1)O2)c1cc(O)c(O)c(O)c1 | - | ELISA | - | IC50 | CXCR4 | >20 µM
C[C@@H]1Cc2c(-c3cc(-c4ccc5ccccc5c4O)c(O)c4ccccc34)c(O)cc(O)c2[C@@H](C)N1 | - | - | - | IC50 | Protein kinase C | 30 µM
O=C(/C=C/c1ccc2ccccc2n1)/C=C/c1ccc2ccccc2n1 | - | - | - | IC50 | Nuclear factor-kappa B | 3.95 µM
CCCCCCCCCC1C[C@@H]2CC[C@H]3[C@@H](C(=O)OC(C)CCCCC[C@@H]4C[C@@H]5CC[C@H]6C[C@@H](C)NC(=N4)N56)[C@@H](C)N=C(N1)N23 | - | - | - | IC50 | CD4 | <30 µM
O=C(Nc1cc(NC(=O)c2ccccc2)cc(-c2nc3ccccc3c(=O)o2)c1)c1ccccc1 | - | absorbance | - | IC50 | Cyclophilin A | 56.2 µM
Nc1ncnc2c1ncn2[C@H]1CN[C@@H](CO)C1 | - | - | - | Ki | Adenosine deaminase | 85 µM
O=C(/C=C/c1ccccn1)/C=C/c1ccccn1 | - | - | - | IC50 | Nuclear factor-kappa B | 0.52 µM
c1ccc(CNCc2ccc(CN3CCNCCc4cccc(c4)CCNCC3)cc2)nc1 | - | calcium flux | - | IC50 | CXCR4 | <1 µg/mL
C=C1CN(S(=O)(=O)c2ccc(C)cc2)CCCN(CCC(C)C)CCCN(S(=O)(=O)c2ccc(C)cc2)C1 | - | - | - | IC50 | CD4 | 0.67 µM
C=CCN(C(=O)OCc1ccccc1)C1CCN(CCC(C)(c2ccccc2)C2Nc3ccccc3S(=O)(=O)N2)CC1 | - | - | - | IC50 | CCR4 | >1 µM
O=S(=O)(c1cccc2cnccc12)N1CCNCC1 | - | nucleotide incorporation | 100 µg/mL | inhibition | Protein kinase C | 64.4 ± 8%
C=C1CN(S(=O)(=O)c2ccc(C)cc2)CCCN(CC2CC2)CCCN(S(=O)(=O)c2ccc(C)cc2)C1 | - | - | - | IC50 | CD4 | 5.24 µM
c1ccc(CNCc2ccc(CN3CCCNCCNCCCNCC3)cc2)nc1 | - | - | - | IC50 | CXCR4 | 0.001 µg/mL
Cc1ccccc1CNCCC[C@H](NC(=O)c1ccc(CNCc2ncc[nH]2)cc1)C(=O)N[C@@H](C)c1cccc2ccccc12 | - | radiometric | - | IC50 | CXCR4 | <0.1 µM
COc1ccc(C[C@H](C[C@H](O)[C@H](Cc2ccccc2)NC(=O)OC(C)(C)C)C(=O)N[C@H](C(=O)N[C@@H](Cc2ccccc2)C(=O)N2CCOCC2)C(C)C)cc1 | - | - | - | IC50 | Cathepsin D | 0.015 µM
O=C(O)c1cc(O)c(O)c(O)c1 | - | flow cytometry | - | IC50 | CD4 | >20 µM
Nc1ccc2ncnc(NCCc3ccc(OCc4ccccc4)cc3)c2c1 | - | luciferase | - | IC50 | Nuclear factor-kappa B | 0.014 µM
Cc1cc(NC(=O)C(=O)NCCN2CCN(C(=O)c3ccccc3F)CC2)ccc1Br | - | absorbance | - | IC50 | Cyclophilin A | 53.4 µM
CO[C@H]1[C@H](O)[C@@H](O)C(n2c3ccccc3c3c4c(c5c6ccccc6[nH]c5c32)C(=O)N(CCCCOC(=O)CBr)C4=O)O[C@@H]1CO | - | - | - | IC50 | Topoisomerase I | 1.14 µM
O=C(/C=C/c1nccc2ccccc12)/C=C/c1nccc2ccccc12 | - | - | - | IC50 | Nuclear factor-kappa B | 1.33 µM
Nc1nccc2c1ncn2[C@@H]1C[C@H](O)[C@@H](O)[C@H]1O | - | radiometric | - | Ki | S-adenosylhomocysteine hydrolase | 0.83 µM
Cn1c2ccccc2c(=O)c2c(O)cccc21 | - | nucleotide incorporation | 0.8 µg/mL | inhibition | Protein kinase C | 18%
CC(C)[C@H](NC(=O)[C@H](Cc1ccccc1)C[C@H](O)[C@H](Cc1ccccc1)NC(=O)OC(C)(C)C)C(=O)N[C@@H](Cc1ccccc1)C(=O)N1CCOCC1 | - | - | - | Ki | Cathepsin D | 0.004 µM
CCOc1cccc(-c2cc(C(=O)N/N=C/c3ccc(OC)c(CN4CCOCC4)c3)c3ccccc3n2)c1 | - | absorbance | - | IC50 | Cyclophilin A | 18.67 µM
NC(N)=NCCC[C@@H]1NC(=O)[C@@H](NC(=O)CCN=C(N)N)CSSC[C@H](C(=O)NCCc2ccc(O)cc2)NC(=O)[C@H](Cc2ccc3ccccc3c2)NC1=O | - | radiometric | - | IC50 | CXCR4 | ~1 µM
Oc1cccc(O)c1O | - | flow cytometry | - | IC50 | CD4 | 4–20 µM
O=C(/C=C/c1ncc(Cl)cc1Cl)/C=C/c1ncc(Cl)cc1Cl | - | - | - | IC50 | Nuclear factor-kappa B | 17.67 µM
c1ccc(CNCc2ccc(CN3CCNCCNCCc4cccc(c4)CC3)cc2)nc1 | - | calcium flux | - | IC50 | CXCR4 | >1 µg/mL
O=C(O)Cc1ccc(O)c(O)c1 | - | flow cytometry | 100 µg/mL | inhibition | CD4 | 55%

Again, the opening 4 rows:

SMILES	changes	read by	tested at	measure	target	result
O=C(O)CS(=O)c1ccc2c3c(cccc13)C(=O)c1ccccc1-2	-	-	-	IC50	VP40:TSG101	11 µM
COC1C(CO)OC(n2c3ccccc3c3c4c(c5c6ccccc6[nH]c5c32)C(=O)N(C)C4=O)C(O)C1O	-	-	0.6 µM	inhibition	Topoisomerase I	95%
Cc1c(-c2ccccc2)c(=O)oc2ccccc12	-	-	-	IC50	Tat:TAR/LTR	>100 µM
Cc1ccc(C(=O)Nc2ccc(S(=O)(=O)O)c3cc(S(=O)(=O)O)cc(S(=O)(=O)O)c23)cc1NC(=O)c1cccc(NC(=O)Nc2cccc(C(=O)Nc3cc(C(=O)Nc4ccc(S(=O)(=O)O)c5cc(S(=O)(=O)O)cc(S(=O)(=O)O)c45)ccc3C)c2)c1	-	-	-	IC50	cAMP-dependent protein kinase	656 µM

Inhibition is in % at the dose shown (toxicity tests: loss of growth or viability). a–b is a range or a potency band. ICn is the concentration giving n% inhibition. Lines come from different laboratories, so protocols vary.